Anti-infective test results gathered from many reports (values: NIAID ChemDB through PubChem).

Common to all: host cell toxicity; cells: HeLa; endpoint: CC50

CCn is the concentration with n% toxicity to the cells.

{"structure": "Cn1ncnc2c(=O)n(C)c(=O)nc1-2", "method": "fluorescence", "result": "0.43 µM"}
{"structure": "CC(C)(C)CC(C)(C)c1ccc(OCCOP(=O)([O-])OCCC[N+](C)(C)Cc2ccccc2)cc1", "method": "MTT", "result": ">100 µM"}
{"structure": "CCCCC[C@H](O)/C=C/[C@H]1C=CC(=O)[C@@H]1CCCCCCC(=O)O", "result": ">4 µg/mL"}
{"structure": "C[C@@]12CC[C@]3(C1)C(C[C@@H](OC(=O)c1ccccc1)[C@H]1[C@@](CO)(C(=O)O)CCC[C@@]13C)C[C@@H]2O", "result": "2.2 µM"}
{"structure": "Nc1ncnc2c1ncn2CC(O)C(=O)O", "method": "trypan blue", "result": ">500 µg/mL"}
{"structure": "COC(=O)N[C@H](C(=O)N1CCC[C@H]1c1nc2ccc(-c3csc4c(-c5ccc(-c6cnc([C@@H]7CCCN7C(=O)[C@H](NC(=O)OC)c7ccccc7)[nH]6)cc5)csc34)cc2[nH]1)C(C)C", "method": "resazurin", "result": ">50 µM"}
{"structure": "Cc1ccc2oc(-c3ccc(O)cc3O)nc2c1", "result": "26.11 µM"}
{"structure": "Oc1[nH]c2ccccc2c1/C=N/N=C/c1ccco1", "method": "MTS", "result": "35.4 µM"}
{"structure": "CCCCCCCCCCCCCCCCOP(=O)([O-])OCCC[N+](C)(C)Cc1ccccc1", "method": "MTT", "result": "62.1 µM"}
{"structure": "NC(=O)c1[nH]nc([C@@H]2O[C@H](CO)[C@@H](O)[C@H]2O)c1O", "method": "trypan blue", "result": "75 µg/mL"}
{"structure": "C[C@@]12CC[C@]3(C1)C(C[C@@H](OC(=O)c1ccccc1)[C@H]1[C@](C)(C(=O)O)CCC[C@@]13C)C[C@@H]2O", "result": "45.5 µM"}
{"structure": "N#Cc1c(C(N)=O)ncn1[C@@H]1O[C@H](CO)[C@@H](O)[C@H]1O", "method": "trypan blue", "result": ">500 µg/mL"}
{"structure": "Nc1ccccc1O[C@@H]1O[C@H](C(=O)O)[C@@H](O)[C@H](O)[C@H]1O", "result": ">200 µg/mL"}
{"structure": "S=c1[nH]nc(-c2ccc(Cl)cc2)s1", "method": "MTT", "result": "13.48 µg/mL"}
{"structure": "N[C@H]1C(C=O)=CC=C[C@@H]1O", "result": "36 µM"}
{"structure": "CC(=O)O[C@@]12CO[C@@H]1C[C@H](O)[C@@]1(C)C(=O)[C@H](O)C3=C(C)C(OC(=O)/C=C/c4ccc5ccccc5c4)C[C@@](O)([C@@H](OC(=O)c4ccccc4)[C@H]21)C3(C)C", "method": "sulforhodamine", "result": "45 µM"}
{"structure": "C[C@@]12CC[C@]3(C1)C(C[C@H]2O)C[C@@H](OC(=O)c1ccccc1)[C@H]1[C@](C)(C(=O)O)CCC[C@@]13C", "result": "27.3 µM"}
{"structure": "O=C(NCCOc1cccc2ccccc12)c1ccccc1O", "result": "19.5 µM"}
{"structure": "C/C=C/C(=O)OC", "result": ">200 µg/mL"}
{"structure": "O=c1[nH]cnc2c1ncn2[C@H]1CC[C@@H](CO)O1", "method": "MTT", "result": ">100 µM"}
{"structure": "Cc1cccc(OCCNC(=O)c2ccncc2Cl)c1", "result": ">172 µM"}
{"structure": "Clc1ccc(-c2nc(SCC3CC3)n[nH]2)cc1", "method": "MTT", "result": "5.8 µg/mL"}
{"structure": "CCCCCCCCCCCCCCCCOP(=O)([O-])OCCC[N+](C)(C)C", "method": "MTT", "result": "84.4 µM"}
{"structure": "C[C@@H](O)C1=C[C@@H](n2cnc3c(N)ncnc32)[C@H](O)[C@@H]1O", "method": "MTT / neutral red", "result": "12 µg/mL"}
{"structure": "CS/C(Nc1cccc([N+](=O)[O-])c1)=C(/C#N)S(=O)(=O)c1ccccc1", "method": "MTT / absorbance", "result": "<0.14 µM"}
{"structure": "S=c1nc(-c2ccco2)[nH][nH]1", "method": "MTT", "result": ">50 µg/mL"}
{"structure": "Nc1ccn([C@H]2CC[C@@H](CO)O2)c(=O)n1", "method": "MTT", "result": ">100 µM"}
{"structure": "C[C@H](N)C(=O)N[C@@H](CNC(=O)/C=C/C(N)=O)C(=O)O", "result": ">200 µg/mL"}
{"structure": "C[C@@]12CC[C@]3(C1)C(CC(=O)[C@H]1[C@](C)(C(=O)O)CCC[C@@]13C)CC2=O", "result": "199 µM"}
{"structure": "Nc1ncnc2c1ncn2[C@H]1[C@H](O)[C@H](O)[C@]2(CO)O[C@H]12", "method": "trypan blue", "result": ">500 µg/mL"}
{"structure": "NC(=O)O[C@@H]1[C@@H](O)[C@H](O)[C@H](NC(=O)[C@@H]2CCC(N)=N2)[C@H](O)[C@H]1O[C@@H]1O[C@H](CO)[C@@H](O[C@H]2O[C@H](CO)[C@@H](O)[C@H](O)[C@H]2NC(=O)[C@@H](N)CCCN=C(N)N)[C@H](O)[C@@H]1O", "result": "100 µg/mL"}
{"structure": "Oc1ccc(CNNC(=S)NC2CCCCC2)cc1", "result": "136.4 µM"}
{"structure": "CC(C)S/C(Nc1cccc(C(F)(F)F)c1)=C(/C#N)S(=O)(=O)c1ccccc1", "method": "MTT / absorbance", "result": "7.1 µM"}
{"structure": "CCCCCCCC/C=C\\CCCCCCCC(=O)OCC(O)CO", "result": "75 µg/mL"}
{"structure": "CCCCCCCCCCCCCCCC[N+](C)(C)Cc1ccccc1", "method": "MTT", "result": "2.8 µM"}
{"structure": "C[C@@]12CC[C@]3(C1)C(CC2=O)C[C@@H](OC(=O)c1ccccc1)[C@H]1[C@](C)(C(=O)O)CCC[C@@]13C", "result": "0.9 µM"}
{"structure": "CCc1cccc(N/C(SC)=C(\\C#N)S(=O)(=O)c2ccccc2)c1", "method": "MTT / absorbance", "result": ">30 µM"}
{"structure": "CCSc1nnc(-c2ccc(F)cc2)o1", "method": "MTT", "result": "14.42 µg/mL"}

5 of the rows above, restated:

structure	method	result
C[C@@]12CC[C@]3(C1)C(C[C@@H](OC(=O)c1ccccc1)[C@H]1[C@@](CO)(C(=O)O)CCC[C@@]13C)C[C@@H]2O		2.2 µM
O=C(NCCOc1cccc2ccccc12)c1ccccc1O		19.5 µM
CS/C(Nc1cccc([N+](=O)[O-])c1)=C(/C#N)S(=O)(=O)c1ccccc1	MTT / absorbance	<0.14 µM
Nc1ncnc2c1ncn2[C@H]1[C@H](O)[C@H](O)[C@]2(CO)O[C@H]12	trypan blue	>500 µg/mL
CC(C)(C)CC(C)(C)c1ccc(OCCOP(=O)([O-])OCCC[N+](C)(C)Cc2ccccc2)cc1	MTT	>100 µM

Conditions beyond the fields shown may differ between rows. Blank or dashed fields: not listed here.